Record: PubChem BioAssay AID624099 (ICCB-Longwood, 2012)
Shown is one part, drawn at random, of about 21,000 deposited reagents. In the full data, 497 (2.4%) are marked active. 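Higher z means weaker E2 silencing; only reporter increases were scored, and knock-downs that hurt cell survival may mask genuine repressor factors.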 Reagents against one gene are numbered here.

Purpose: 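Human genes that papillomavirus E2 requires to repress the HPV18 LCR promoter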 (primary screen)
Cells: human C33A cervical carcinoma cells (HPV-negative) stably expressing BPV1 E2 and an HPV18 LCR luciferase reporter
Knock-down reagent: siRNA pool against human genes, 40 nM
Time to read-out: 72 h
Measured: 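Per-well luciferase luminescence, z-scored on each plate against the plate mean and SD with control wells left out, then averaged across three replicate plates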
Scale: mean z-score and z-score: higher = stronger reporter signal, weaker E2 silencing
Call rule: 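Hit if mean z-score reaches 2 and two or more of three replicate z-scores also reach 2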

no.	target gene	reagent no.	mean z-score	z-score, replicate A	z-score, replicate B	z-score, replicate C	Call
1	RASA4	1	0.68	0.76	0.67	0.62	inactive
2	LOC100129860 (retired record)	1	0.77	0.84	0.89	0.58	inactive
3	NUP160	1	-1.13	-1.16	-1.34	-0.88	inactive
4	FANCB	1	1.1	1.21	1.3	0.78	inactive
5	TSC1	1	-0.72	-0.1	-1.07	-1	inactive
6	SLIT2	1	0.65	0.58	0.77	0.61	inactive
7	MDK	1	-0.57	-0.76	-0.48	-0.47	inactive
8	SPATA31C1	1	-0.48	-0.26	-0.7	-0.48	inactive
9	GDF11	1	-0.5	-0.56	-0.65	-0.3	inactive
10	APC2	1	0.67	0.85	0.51	0.64	inactive
11	TIMP2	1	0.14	0.3	-0.05	0.17	inactive
12	LOC389089 (retired record)	1	-0.67	-0.69	-0.87	-0.44	inactive
13	CKMT1B	1	-0.88	-0.68	-0.84	-1.12	inactive
14	LINC02694	1	1.6	1.55	1.61	1.63	inactive
15	LOC400050 (retired record)	1	0.27	0.26	-0.12	0.67	inactive
16	SFRP4	1	-1.26	-1.25	-1.07	-1.46	inactive
17	GPR148	1	0.45	0.73	0.15	0.48	inactive
18	FAM90A3	1	0.33	0.3	0.59	0.09	inactive
19	MEFV	1	0.1	0.31	-0.14	0.12	inactive
20	KHK	1	2.65	2.83	2.55	2.57	active

Next part (2 carried over from the part before).
no.	target gene	reagent no.	mean z-score	z-score, replicate A	z-score, replicate B	z-score, replicate C	Call
19	MEFV	1	0.1	0.31	-0.14	0.12	inactive
20	KHK	1	2.65	2.83	2.55	2.57	active
21	RPL4	1	-1.92	-2.01	-1.92	-1.83	inactive
22	AKT1S1	1	-0.36	-0.6	-0.39	-0.1	inactive
23	EXOSC1	1	-0.44	0.01	-0.72	-0.6	inactive
24	RLN1	1	0.17	0.06	0.19	0.25	inactive
25	THAP11	1	0.7	0.98	0.54	0.59	inactive
26	STAT5B	1	-0.3	-0.28	-0.36	-0.25	inactive
27	FAM228B	1	-0.05	-0.04	0.14	-0.25	inactive
28	NBPF4	1	-0.19	-0.21	-0.02	-0.33	inactive
29	KRT40	1	0.4	0.48	0.3	0.42	inactive
30	AJUBA	1	0.68	1.13	0.18	0.73	inactive
31	SLC25A47	1	-1.35	-1.41	-1.41	-1.24	inactive
32	PTPN18	1	1.56	1.75	1.73	1.19	inactive
33	HAT1	1	-0.64	-0.72	-0.76	-0.44	inactive
34	ALDH2	1	-0.77	-0.64	-0.86	-0.83	inactive
35	COPS2	1	-0.94	-0.37	-1.15	-1.3	inactive
36	ZMAT2	1	-0.03	0.32	-0.52	0.12	inactive
37	PDLIM1	1	-0.15	-0.17	-0.05	-0.22	inactive
38	METRNL	1	0.33	0.26	0.39	0.33	inactive
39	S100A6	1	-0.26	-0.12	-0.42	-0.25	inactive
40	KLF15	1	-1.55	-1.38	-1.56	-1.72	inactive
41	ZDHHC3	1	-0.86	-0.48	-1.04	-1.06	inactive
42	ZDHHC3	2	1.21	1.02	1.2	1.4	inactive
43	IRAK2	1	0.05	0	-0.05	0.21	inactive
44	SCML2	1	-0.3	-1.49	0.6	0.01	inactive
45	ZNF423	1	-0.36	-0.37	-0.2	-0.52	inactive
46	LINC01734	1	-0.45	-0.68	-0.45	-0.21	inactive
47	AIDA	1	0.28	0.11	0.49	0.24	inactive
48	GAN	1	-0.69	-0.24	-0.82	-1.03	inactive
49	LOC401740 (retired record)	1	1.05	0.79	1.59	0.79	inactive
50	PLAC8L1	1	1.01	1.23	1.11	0.69	inactive
51	PCDHA2	1	0.36	0.41	0.47	0.21	inactive
52	LOC388345 (retired record)	1	0.41	0.16	0.2	0.88	inactive
53	GABRA1	1	0.8	0.76	0.68	0.95	inactive
54	SPATA32	1	-1.33	-1.68	-1.21	-1.1	inactive
55	TRAF3IP3	1	0.11	-0.31	0	0.63	inactive
56	PANK2	1	-0.72	-0.64	-0.84	-0.68	inactive
57	OR2M5	1	-0.75	-0.29	-1.03	-0.93	inactive
